Measured values: patent US20210038681A1, “PHARMACEUTICAL COMPOSITION FOR TREATING VIRAL HEPATITIS C” (priority 2018, published 2021)

Experiments:
[1] = tested on: HCV 1a L31V + Y93H replicon; experiment: microbe, parasite or virus in culture; settings: Hepatitis C virus, Huh-7, read-out: Mean EC50 (nM) ± SD
[2] = tested on: HCV 1a L31V + Y93H replicon; settings: read-out: Mean EC50 (nM) ± SD; HCV 1a variant L31V + Y93H; Huh7-Lunet cells

Row | SMILES | EC50 [1] | EC50 [2]
1 | CNC(=O)c1c(-c2ccc(F)cc2)oc2cc(N(CCO)S(C)(=O)=O)c(C3CC3)cc12 [HCV-796] | 11.4 nM | –
2 | C[C@@]1(F)[C@H](O)[C@@H](CO)O[C@H]1n1ccc(N)nc1=O [PSI-6130] | – | 548 nM
3 | CC(C)(C)OC(=O)N[C@H]1CCCCC/C=C\[C@@H]2C[C@@]2(C(=O)NS(=O)(=O)C2CC2)NC(=O)[C@@H]2C[C@@H](OC(=O)N3Cc4cccc(F)c4C3)CN2C1=O [ASC08, Danoprevir] | 4.1 nM | –
4 | COC(=O)N[C@H](C(=O)N1CCC[C@H]1c1ncc(-c2ccc3cc(-c4ccc5nc([C@@H]6CCCN6C(=O)[C@@H](NC(=O)OC)C(C)C)[nH]c5c4)ccc3c2)[nH]1)C(C)C [ASC16, Ravidasvir] | 1160 nM | –

Where two headings read alike, the source gives them in different places.
